Measurements taken from patent US12490739B2, “Synergistically effective fungicide composition comprising choline phosphonate and at least one additional fungicide” (BELCHIM CROP PROTECTION NV, priority 2019, dated 2025).

How the values were obtained:
Podosphaera leucotricha [1] = test: Example 14 field trials, apple (Malus domestica var. Gold Rush, var. Morgenduft Dallago) infected with powdery mildew; type: in vivo; conditions: 100 leaves, 1948.15 g a.c./ha
Sphaerotheca fuliginea = test: Example 8 field trial, cucumber (Cucumis sativus) infected with powdery mildew, Spain; type: in vivo; conditions: 7 DA-A3, BBCH 63, 430 g a.c./ha
Phytophthora infestans = test: Example 11 potted potato plants (Solanum tuberosum L. var. Bintje) infected with late blight, Belgium; conditions: PESINC; 14 DA-A2; 3316 g a.c./ha
Venturia inaequalis [2] = test: Example 5 field trials, apple (Malus domestica var. Golden delicious) infected with scab; type: in vivo; conditions: 1950 g a.c./ha
Plasmopara viticola = test: Example 1 field trial, Vitis vinifera var. Chardonnay infected with downy mildew, South Africa; type: in vivo; conditions: 1620 g a.c./ha
Venturia inaequalis [3] = test: Example 15 field trial, apple (Malus domestica var. Gala) infected with apple scab, France; type: in vivo; conditions: PESINC, 200 leaves, 3316 g a.c./ha
Podosphaera leucotricha [4] = test: Example 13 field trials, apple (Malus domestica var. Gold Rush, var. Morgenduft Dallago) infected with powdery mildew; type: in vivo; conditions: 1948.15 g a.c./ha
Uncinula necator = test: Example 12 field trial, Vitis vinifera var. Carignan infected with powdery mildew, France; type: in vivo; conditions: 1740.9 g a.c./ha
[5] = PESINC, 50 bunches, 14 DA-A3, BBCH 77
[6] = PESINC, 50 bunches, 14 DA-A5, BBCH 83
[7] = PESINC, 100 leaves, 14 DA-A3, BBCH 77
[8] = PESSEV, 50 bunches, 14 DA-A3, BBCH 77
[9] = PESSEV, 50 bunches, 14 DA-A5, BBCH 83
[10] = PESSEV, 100 leaves, 14 DA-A3, BBCH 77

Substance: choline phosphonate
- CP f.e. (%) (Podosphaera leucotricha [1]; PESINC, location 1 (France), 5 DA-A8, BBCH 74): 34.0%
- CP f.e. (%) (Podosphaera leucotricha [1]; PESINC, location 1 (France), 6 DA-A6, BBCH 74): 44.2%
- CP f.e. (%) (Podosphaera leucotricha [1]; PESINC, location 1 (France), 15 DA-A8, BBCH 76): 18.6%
- CP f.e. (%) (Podosphaera leucotricha [1]; PESINC, location 1, 5 DA-A8, BBCH 74, second listing (r52)): 37.7%
- CP f.e. (%) (Podosphaera leucotricha [1]; PESINC, location 1, 6 DA-A6, BBCH 74, second listing (r46)): 23.6%
- CP f.e. (%) (Podosphaera leucotricha [1]; PESINC, location 1, 15 DA-A8, BBCH 76, second listing (r58)): 14.1%
- CP f.e. (%) (Podosphaera leucotricha [1]; PESSEV, location 1 (France), 5 DA-A8, BBCH 74): 62.5%
- CP f.e. (%) (Podosphaera leucotricha [1]; PESSEV, location 1 (France), 6 DA-A6, BBCH 74): 53.1%
- CP f.e. (%) (Podosphaera leucotricha [1]; PESSEV, location 1 (France), 15 DA-A8, BBCH 76): 34.2%
- CP f.e. (%) (Podosphaera leucotricha [1]; PESSEV, location 1, 5 DA-A8, BBCH 74, second listing (r49)): 19.3%
- CP f.e. (%) (Podosphaera leucotricha [1]; PESSEV, location 1, 6 DA-A6, BBCH 74, second listing (r43)): 30.4%
- CP f.e. (%) (Podosphaera leucotricha [1]; PESSEV, location 1, 15 DA-A8, BBCH 76, second listing (r55)): 12.2%
- CP f.e. (%) (Sphaerotheca fuliginea; PESINC): 80.6%
- CP f.e. (%) (Sphaerotheca fuliginea; PESSEV): 90.8%
- CP f.e. (%) (Phytophthora infestans): 10.1%
- CP f.e. (%) (Venturia inaequalis [2]; PESINC, location 1 (France), 6 DA-A4, BBCH 72): 10.0%
- CP f.e. (%) (Venturia inaequalis [2]; PESINC, location 2 (Italy), 4 DA-A11, BBCH 75): 29.3%
- CP f.e. (%) (Venturia inaequalis [2]; PESINC, location 2 (Italy), 6 DA-A9, BBCH 74): 50.7%
- CP f.e. (%) (Venturia inaequalis [2]; PESINC, location 2 (Italy), 6 DA-A13, BBCH 77): 19.7%
- CP f.e. (%) (Venturia inaequalis [2]; PESINC, location 2 (Italy), 7 DA-A6, BBCH 72): 45.7%
- CP f.e. (%) (Venturia inaequalis [2]; PESINC, location 3 (Belgium), 31 DA-A9, BBCH 73): 41.1%
- CP f.e. (%) (Venturia inaequalis [2]; PESINC, location 3 (Belgium), 80 DA-A9, BBCH 73): 31.7%
- CP f.e. (%) (Venturia inaequalis [2]; PESSEV, location 2 (Italy), 4 DA-A11, BBCH 75): 65.6%
- CP f.e. (%) (Venturia inaequalis [2]; PESSEV, location 2 (Italy), 6 DA-A9, BBCH 74): 66.6%
- CP f.e. (%) (Venturia inaequalis [2]; PESSEV, location 2 (Italy), 6 DA-A13, BBCH 77): 57.8%
- CP f.e. (%) (Venturia inaequalis [2]; PESSEV, location 2 (Italy), 7 DA-A6, BBCH 72): 81.7%
- CP f.e. (%) (Plasmopara viticola; [5]): 7.2%
- CP f.e. (%) (Plasmopara viticola; [6]): 8.2%
- CP f.e. (%) (Plasmopara viticola; [7]): 74.5%
- CP f.e. (%) (Plasmopara viticola; [8]): 34.1%
- CP f.e. (%) (Plasmopara viticola; [9]): 32.5%
- CP f.e. (%) (Plasmopara viticola; [10]): 83.8%
- CP f.e. (%) (Venturia inaequalis [3]; 28 DA-A12, BBCH 73): 67.7%
- CP f.e. (%) (Venturia inaequalis [3]; 56 DA-A12, BBCH 75): 65.3%
- CP f.e. (%) (Podosphaera leucotricha [4]; PESINC, location 1 (France), 20 shoots, 7 DA-A5, BBCH 71): 56.5%
- CP f.e. (%) (Podosphaera leucotricha [4]; PESINC, location 1 (France), 100 leaves, 5 DA-A8, BBCH 74): 34.0%
- CP f.e. (%) (Podosphaera leucotricha [4]; PESINC, location 1 (France), 100 leaves, 6 DA-A6, BBCH 74): 44.2%
- CP f.e. (%) (Podosphaera leucotricha [4]; PESINC, location 1 (France), 100 leaves, 15 DA-A8, BBCH 76): 18.6%
- CP f.e. (%) (Podosphaera leucotricha [4]; PESINC, location 2 (Italy), 5 leaves, 5 DA-A6, BBCH 74): 23.6%
- CP f.e. (%) (Podosphaera leucotricha [4]; PESINC, location 2 (Italy), 40 shoots, 2 DA-A10, BBCH 74): 19.3%
- CP f.e. (%) (Podosphaera leucotricha [4]; PESINC, location 2 (Italy), 40 shoots, 6 DA-A5, BBCH 71): 2.7%
- CP f.e. (%) (Podosphaera leucotricha [4]; PESINC, location 2 (Italy), 40 shoots, 6 DA-A11, BBCH 74): 12.2%
- CP f.e. (%) (Podosphaera leucotricha [4]; PESSEV, location 1 (France), 100 leaves, 6 DA-A6, BBCH 74): 53.1%
- CP f.e. (%) (Podosphaera leucotricha [4]; PESSEV, location 1 (France), 100 leaves, 15 DA-A8, BBCH 76): 34.2%
- CP f.e. (%) (Podosphaera leucotricha [4]; PESSEV, location 2 (Italy), 5 leaves, 2 DA-A10, BBCH 74): 37.7%
- CP f.e. (%) (Podosphaera leucotricha [4]; PESSEV, location 2 (Italy), 5 leaves, 5 DA-A6, BBCH 74): 30.4%
- CP f.e. (%) (Podosphaera leucotricha [4]; PESSEV, location 2 (Italy), 5 leaves, 6 DA-A11, BBCH 74): 14.1%
- CP f.e. (%) (Uncinula necator; [5]): 3.8%
- CP f.e. (%) (Uncinula necator; PESINC, 50 bunches, 14 DA-A3, BBCH 77, second listing (r34)): 0.8%
- CP f.e. (%) (Uncinula necator; [6]): 38.6%
- CP f.e. (%) (Uncinula necator; PESINC, 50 bunches, 14 DA-A5, BBCH 83, second listing (r36)): 0%
- CP f.e. (%) (Uncinula necator; [7]): 34.1%
- CP f.e. (%) (Uncinula necator; PESINC, 100 leaves, 14 DA-A3, BBCH 77, second listing (r32)): 6.7%
- CP f.e. (%) (Uncinula necator; [8]): 48.3%
- CP f.e. (%) (Uncinula necator; PESSEV, 50 bunches, 14 DA-A3, BBCH 77, second listing (r28)): 4.0%
- CP f.e. (%) (Uncinula necator; [9]): 12.8%
- CP f.e. (%) (Uncinula necator; PESSEV, 50 bunches, 14 DA-A5, BBCH 83, second listing (r30)): 17.4%
- CP f.e. (%) (Uncinula necator; [10]): 15.9%
